Data as given in PubChem BioAssay AID504761 (Drosophila RNAi Screening Center, 2011).

Aim: 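Genome-wide fly cell screen for genes dengue virus requires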 (primary screen)
System: D.Mel-2 cells from Drosophila
Reagents: long dsRNA against Drosophila genes
Treatment: infection with dengue virus type 2; dose and infection time not stated
Measurement: 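Cells stained for dengue envelope protein and imaged; percent of infected cells per well on duplicate plates, ranked by infection, with stained nuclei counted for cell number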
Direction: infection score: higher = more virus-infected cells
Active means: 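Very low infection ranking in both replicate wells (chance probability at most 0.065), then a retest showing infection dropped 1.5-fold or more at p below 0.05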
Meaning of the calls: active = confirmed: knock-down lowers infection; inactive = not picked or not confirmed
In all, the deposit lists about 22,000 reagents; shown is an unselected part of those with a known target gene and a result. Of all reagents, 116 (0.52%) were called active. 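Calls depend on retest data that are not deposited; infection was ranked per plate without normalising between plates; the unit of the infection score is not given.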 Unmarked entries are inactive. Names joined by + are all predicted targets of the reagent. Further read-outs or replicates are left out here. The record does not give: the amount of reagent, the time to read-out.

infection score, replicate 1, by predicted target and reagent
pre-mod(mdg4)-U + mod(mdg4): DRSC13476 2.25
Hap40 (GeneID 32507): DRSC20085 0.85; DRSC26124 12.5
Ipo9 (GeneID 41367): DRSC16813 3.89
mRpS18C (GeneID 43609): DRSC16538 9.77; DRSC27054 5.26
Tom20 (GeneID 40189): DRSC10899 7.61
CG1236 (GeneID 40708): DRSC12203 1.33
CG10737 (GeneID 37202): DRSC05999 4.84; DRSC26112 7.54
CG14005 (GeneID 33808): DRSC02337 4.15
ClpP (GeneID 34402): DRSC02806 4.85
salr (GeneID 34568): DRSC03607 5.41
Dhc16F (GeneID 32785): DRSC20242 17.1

A few values from the list.
Under “infection score, replicate 1”, mRpS18C (GeneID 43609) [DRSC27054] has 5.26
For “infection score, replicate 1”, CG10737 (GeneID 37202) [DRSC05999] reads 4.84
Entry of mRpS18C (GeneID 43609) [DRSC16538] under “infection score, replicate 1”: 9.77
Value for CG1236 (GeneID 40708) [DRSC12203] under “infection score, replicate 1”: 1.33

More records follow:
infection score, replicate 1, by predicted target and reagent
CG17567 (retired record) (GeneID 50468): DRSC02627 1.36; DRSC22537 14.9; DRSC24938 2.08
CG7737 (GeneID 36174): DRSC07033 15.6
CG32795 (GeneID 31270): DRSC18609 1.64; DRSC18610 8.55
Kat60 (GeneID 53566): DRSC12378 3.85
Spn88Ea (GeneID 49804): DRSC17061 2.74; DRSC27907 12.6
Hsp26 (GeneID 39075): DRSC11189 4.8
GstD5 (GeneID 48338): DRSC16686 15; DRSC25144 2.3
CG11437 (GeneID 40470): DRSC11659 6.04
EndoB (GeneID 37218): DRSC07345 3.49
ReepA (GeneID 37643): DRSC04572 15; DRSC22475 6.44; DRSC27058 6.43; DRSC29893 9.19
bdl (GeneID 33635): DRSC00271 7.54
CG32733 (retired record) (GeneID 318179): DRSC17481 0.89; DRSC28689 12
mAChR-B (GeneID 40955): DRSC16345 1.91; DRSC26738 13.8
Amnionless (GeneID 33199): DRSC00317 20.4
TwdlT (GeneID 44790): DRSC21540 0.87
